Read-outs that look alike come from different tables or passages of the source.
Columns and labels:
[1] = molecular target: LASV GPCysR4 (Lassa virus) (UniProt P08669)
[2] = molecular target: LCMV ARM strain GP (LCMV, Armstrong strain) (UniProt P09991); experiment: cell-based or functional assay
[3] = molecular target: LASV A19 (lineage II) glycoprotein (Lassa virus, strain A19); experiment: cell-based or functional assay
[4] = molecular target: LASV 237 (lineage III) glycoprotein (Lassa virus, strain 237); experiment: cell-based or functional assay
[5] = molecular target: LASV Josiah (lineage IV) glycoprotein, full-length GP (Lassa virus, Josiah strain) (UniProt P08669); experiment: cell-based or functional assay
[6] = molecular target: LASV Pinneo (lineage I) glycoprotein (Lassa virus, strain Pinneo); experiment: cell-based or functional assay
[7] = molecular target: LASV Josiah (lineage IV) glycoprotein, full-length GP (Lassa virus, Josiah strain) (UniProt P08669); experiment: cell-based or functional assay; remark: listed apart in the source

Substance: Fab 37.7H
- surface of GP buried [1]: 1620 Å^2
- surface of GP buried at site A [1]: 1000 Å^2
- surface of GP buried at site B [1]: 620 Å^2

Substance: 36.1F (antibody)
- IC50 (neutralization) [2]: > 10 µg/mL
- IC80 (neutralization) [2]: > 10 µg/mL

Substance: 36.9F (antibody)
- IC50 (neutralization) [2]: 0.591 µg/mL
- IC80 (neutralization) [2]: 3.33 µg/mL

Substance: 37.7H (antibody)
- IC50 (neutralization) [2]: > 10 µg/mL
- IC80 (neutralization) [2]: > 10 µg/mL

Substance: 12.1F (antibody; modification not given)
- IC50 (neutralization) [3]: 0.463 µg/mL
- IC80 (neutralization) [3]: 2.27 µg/mL
- IC50 (neutralization) [4]: 0.146 µg/mL
- IC80 (neutralization) [4]: 0.458 µg/mL
- IC50 (neutralization) [5]: 0.158 µg/mL
- IC80 (neutralization) [5]: 0.562 µg/mL
- IC50 (neutralization) [6]: 0.285 µg/mL
- IC80 (neutralization) [6]: 0.692 µg/mL
- IC50 (neutralization) [7]: 0.172 µg/mL
- IC80 (neutralization) [7]: 0.258 µg/mL

Substance: 8.11G (antibody)
- IC50 (neutralization) [2]: > 10 µg/mL
- IC80 (neutralization) [2]: > 10 µg/mL

Substance: 8.9F (antibody)
- IC50 (neutralization) [2]: > 10 µg/mL
- IC80 (neutralization) [2]: > 10 µg/mL

Substance: 12.1F (antibody)
- IC50 (neutralization) [2]: 0.167 µg/mL
- IC80 (neutralization) [2]: 0.265 µg/mL

Substance: 9.8A (antibody)
- IC50 (neutralization) [2]: 0.112 µg/mL
- IC80 (neutralization) [2]: 0.248 µg/mL

Substance: 18.5C (antibody)
- IC50 (neutralization) [2]: 2.21 µg/mL
- IC80 (neutralization) [2]: 4.83 µg/mL

Substance: 36.1F (antibody; modification not given)
- IC50 (neutralization) [3]: > 20 µg/mL
- IC80 (neutralization) [3]: > 20 µg/mL
- IC50 (neutralization) [4]: > 20 µg/mL
- IC80 (neutralization) [4]: > 20 µg/mL
- IC50 (neutralization) [5]: 0.248 µg/mL
- IC80 (neutralization) [5]: 0.755 µg/mL
- IC50 (neutralization) [6]: > 20 µg/mL
- IC80 (neutralization) [6]: > 20 µg/mL
- IC50 (neutralization) [7]: 0.132 µg/mL
- IC80 (neutralization) [7]: 0.206 µg/mL

Substance: 37.2G (antibody)
- IC50 (neutralization) [2]: 0.525 µg/mL
- IC80 (neutralization) [2]: 2.46 µg/mL

Substance: 37.2D (antibody)
- IC50 (neutralization) [2]: 0.518 µg/mL
- IC80 (neutralization) [2]: 2.36 µg/mL

Substance: 10.4B (antibody)
- IC50 (neutralization) [2]: > 10 µg/mL
- IC80 (neutralization) [2]: > 10 µg/mL

From US20200002405A1
